Experiments:
[1] = molecular target: platelet glycoprotein αIIbβ3 (on human platelets), human, P08514 32-1039; P05106 27-788; assay: cell-based or functional assay
[2] = molecular target: integrin αvβ3 (on rat osteoclast precursors), rat; assay: cell-based or functional assay

| Substance | Platelet aggregation IC50 [1] [nM] | Osteoclastogenesis IC50 [2] [nM] |
| --- | --- | --- |
| ARLDDL (rhodostomin variant ^48ARLDDL^53) | 10400 |  |
| Pegylated RD (^48PRLDMP^53-5K) | 398 | 3.88 |
| RD (rhodostomin variant ^48PRLDMP^53) | 433 | 3.32 |
